Target: GS-TAP-tagged Optn (human) (UniProt Q96CV9)
Assay: TAP of GS-tagged Optn from HEK-293 cells, LC-MSMS

## E1B 55K [Human adenovirus type 5] (from UniProt P03243 1-496)
  sequence coverage: 0.01
  unique peptide counts: 2
